Test: xn = mol fraction of the nth substance listed
Details: 100 kPa

CCCC[N+]1(C)CCCC1.O=S(=O)(F)[N-]S(=O)(=O)F + O
Details | electrical conductivity [S/m] | mass density [kg/m3] | viscosity [mPa·s]
288.15 K, x1 = 0.8018 | – | 1306.6 | 46.91
288.15 K, x1 = 0.817 | 0.635 | – | –
288.15 K, x1 = 0.8545 | – | 1308.9 | 53.6
288.15 K, x1 = 0.8556 | 0.583 | – | –
288.15 K, x1 = 0.8758 | – | 1310.1 | 55.8
288.15 K, x1 = 0.9182 | – | 1311.6 | 62.8
288.15 K, x1 = 0.9283 | 0.512 | – | –
288.15 K, x1 = 0.9457 | – | 1312.5 | 67.4
288.15 K, x1 = 0.9578 | 0.485 | – | –
288.15 K, x1 = 0.9727 | – | 1313.8 | 72.3
288.15 K, x1 = 0.9771 | 0.464 | – | –
293.15 K, x1 = 0.8018 | – | 1302.8 | 39.15
293.15 K, x1 = 0.8545 | – | 1305.1 | 44.66
293.15 K, x1 = 0.8556 | 0.685 | – | –
293.15 K, x1 = 0.8758 | – | 1306.4 | 46.46
293.15 K, x1 = 0.8777 | 0.671 | – | –
293.15 K, x1 = 0.9002 | 0.635 | – | –
293.15 K, x1 = 0.9283 | 0.605 | – | –
293.15 K, x1 = 0.9457 | – | 1308.8 | 55.8
293.15 K, x1 = 0.9578 | 0.573 | – | –
293.15 K, x1 = 0.9727 | – | 1310 | 59.6
293.15 K, x1 = 0.9771 | 0.55 | – | –
298.15 K, x1 = 0.8018 | – | 1298.6 | 33.09
298.15 K, x1 = 0.817 | 0.859 | – | –
298.15 K, x1 = 0.8545 | – | 1301.1 | 37.66
298.15 K, x1 = 0.8758 | – | 1302.4 | 39.11
298.15 K, x1 = 0.8777 | 0.777 | – | –
298.15 K, x1 = 0.9002 | 0.739 | – | –
298.15 K, x1 = 0.9182 | – | 1303.8 | 43.67
298.15 K, x1 = 0.9283 | 0.705 | – | –
298.15 K, x1 = 0.9457 | – | 1304.8 | 46.64
298.15 K, x1 = 0.9578 | 0.669 | – | –
298.15 K, x1 = 0.9727 | – | 1305.9 | 49.7
298.15 K, x1 = 0.9771 | 0.643 | – | –
303.15 K, x1 = 0.8018 | – | 1294.8 | 28.26
303.15 K, x1 = 0.817 | 0.985 | – | –
303.15 K, x1 = 0.8556 | 0.923 | – | –
303.15 K, x1 = 0.8758 | – | 1298.4 | 33.28
303.15 K, x1 = 0.8777 | 0.904 | – | –
303.15 K, x1 = 0.9182 | – | 1299.9 | 37.01
303.15 K, x1 = 0.9457 | – | 1300.9 | 39.43
303.15 K, x1 = 0.9578 | 0.776 | – | –
303.15 K, x1 = 0.9727 | – | 1302.1 | 41.94
303.15 K, x1 = 0.9771 | 0.746 | – | –
308.15 K, x1 = 0.8018 | – | 1290.6 | 24.37
308.15 K, x1 = 0.817 | 1.12 | – | –
308.15 K, x1 = 0.8545 | – | 1293.1 | 27.62
308.15 K, x1 = 0.8556 | 1.05 | – | –
308.15 K, x1 = 0.8758 | – | 1294.3 | 28.58
308.15 K, x1 = 0.8777 | 1.03 | – | –
308.15 K, x1 = 0.9182 | – | 1295.9 | 31.67
308.15 K, x1 = 0.9283 | 0.943 | – | –
308.15 K, x1 = 0.9578 | 0.899 | – | –
308.15 K, x1 = 0.9727 | – | 1298.1 | 35.72
308.15 K, x1 = 0.9771 | 0.869 | – | –
313.15 K, x1 = 0.8018 | – | 1286.8 | 21.19
313.15 K, x1 = 0.817 | 1.26 | – | –
313.15 K, x1 = 0.8545 | – | 1289.2 | 23.97
313.15 K, x1 = 0.8758 | – | 1290.5 | 24.76
313.15 K, x1 = 0.8777 | 1.16 | – | –
313.15 K, x1 = 0.9002 | 1.11 | – | –
313.15 K, x1 = 0.9182 | – | 1292.1 | 27.34
313.15 K, x1 = 0.9283 | 1.07 | – | –
313.15 K, x1 = 0.9457 | – | 1292.9 | 29.01
313.15 K, x1 = 0.9578 | 1.02 | – | –
313.15 K, x1 = 0.9727 | – | 1294.2 | 30.71
318.15 K, x1 = 0.8018 | – | 1282.8 | 18.58
318.15 K, x1 = 0.817 | 1.41 | – | –
318.15 K, x1 = 0.8545 | – | 1285.3 | 20.97
318.15 K, x1 = 0.8556 | 1.33 | – | –
318.15 K, x1 = 0.8758 | – | 1286.6 | 21.62
318.15 K, x1 = 0.9002 | 1.24 | – | –
318.15 K, x1 = 0.9182 | – | 1288.2 | 23.8
318.15 K, x1 = 0.9457 | – | 1289.2 | 25.2
318.15 K, x1 = 0.9578 | 1.15 | – | –
318.15 K, x1 = 0.9727 | – | 1290.3 | 26.63
323.15 K, x1 = 0.8545 | – | 1281.4 | 18.49
323.15 K, x1 = 0.8758 | – | 1282.7 | 19.02
323.15 K, x1 = 0.8777 | 1.46 | – | –
323.15 K, x1 = 0.9182 | – | 1284.3 | 20.87
323.15 K, x1 = 0.9283 | 1.35 | – | –
323.15 K, x1 = 0.9457 | – | 1285.4 | 22.06
323.15 K, x1 = 0.9578 | 1.29 | – | –
323.15 K, x1 = 0.9727 | – | 1286.3 | 23.25
328.15 K, x1 = 0.8018 | – | 1275.1 | 14.57
328.15 K, x1 = 0.8545 | – | 1277.6 | 16.3
328.15 K, x1 = 0.8556 | 1.65 | – | –
328.15 K, x1 = 0.8758 | – | 1278.9 | 16.84
328.15 K, x1 = 0.8777 | 1.62 | – | –
328.15 K, x1 = 0.9182 | – | 1280.5 | 18.42
328.15 K, x1 = 0.9457 | – | 1281.5 | 19.44
328.15 K, x1 = 0.9578 | 1.44 | – | –
328.15 K, x1 = 0.9771 | 1.4 | – | –
333.15 K, x1 = 0.817 | 1.92 | – | –
333.15 K, x1 = 0.8545 | – | 1273.8 | 14.36
333.15 K, x1 = 0.8556 | 1.83 | – | –
333.15 K, x1 = 0.9002 | 1.72 | – | –
333.15 K, x1 = 0.9182 | – | 1276.6 | 16.36
333.15 K, x1 = 0.9283 | 1.67 | – | –
333.15 K, x1 = 0.9578 | 1.6 | – | –
333.15 K, x1 = 0.9727 | – | 1278.8 | 18.12
333.15 K, x1 = 0.9771 | 1.56 | – | –

From a compilation of properties of binary mixtures (doi:10.1016/j.fluid.2021.113137)
